Experimental data published in patent US20250283886.

Columns and labels:
YPYPYP{LYSN3}NH2 = biological target: T1, YPYPYP{LYSN3}NH2
T1 chain: YPYPYPX

FPFPFP{LYSN3}NH2 = biological target: T2, FPFPFP{LYSN3}NH2
T2 chain: FPFPFPX

IIPFQQ = biological target: T3, IIPFQQ
T3 chain: IIPFQQ

RRPFQQ = biological target: T4, RRPFQQ
T4 chain: RRPFQQ

DDPFQQ = biological target: T5, DDPFQQ
T5 chain: DDPFQQ

CCPFQQ = biological target: T6, CCPFQQ
T6 chain: CCPFQQ

TTPFQQ = biological target: T7, TTPFQQ
T7 chain: TTPFQQ

LLPFQQ = biological target: T8, LLPFQQ
T8 chain: LLPFQQ

QQPFQQ = biological target: T9, QQPFQQ
T9 chain: QQPFQQ

KKPFQQ = biological target: T10, KKPFQQ
T10 chain: KKPFQQ

FFPFQQ = biological target: T11, FFPFQQ
T11 chain: FFPFQQ

YYPFQQ = biological target: T12, YYPFQQ
T12 chain: YYPFQQ

WWPFQQ = biological target: T13, WWPFQQ
T13 chain: WWPFQQ

DDMDDM{LYSN3}NH2 = biological target: T14, DDMDDM{LYSN3}NH2
T14 chain: DDMDDMX

VVPFQQ = biological target: T15, VVPFQQ
T15 chain: VVPFQQ

AAPFQQ = biological target: T16, AAPFQQ
T16 chain: AAPFQQ

SSPFQQ = biological target: T17, SSPFQQ
T17 chain: SSPFQQ

EEPFQQ = biological target: T18, EEPFQQ
T18 chain: EEPFQQ

NNPFQQ = biological target: T19, NNPFQQ
T19 chain: NNPFQQ

B1: Cy3B-Q24-pAzF-yPIP (protein)
chain: MTQQEYQNRRQALLAKMAPGSAAIIFAAPEATRSADSEYPYRQNSDFSYLTGFNEPEAVLILVKSDETHNHSVLFNRIRDLTAEIWFGRRLGQEAAPTKLAVDRALPFDEINEQLYLLLNRLDVIYHAQGQYAYADNIVFAALEKLRHGFRKNLRAPATLTDWRPWLHEMRLFKSAEEIAVLRRAGEISALAHTRAMEKCRPGMFEYQLEGEILHEFTRHGARYPAYNTIVGGGENGCILHYTENECELRDGDLVLIDAGCEYRGYAGDITRTFPVNGKFTPAQRAVYDIVLAAINKSLTLFRPGTSIREVTEEVVRIMVVGLVELGILKGDIEQLIAEQAHRPFFMHGLSHWLGMDVHDVGDYGSSDRGRILEPGMVLTVEPGLYIAPDADVPPQYRGIGIRIEDDIVITATGNENLTASVVKDPDDIEALMALNHAGENLYFQE
- HPLC Assay Conv; 1 mM Peptide, 7 uM Enzyme, 37 C/0.5 hr (YPYPYP{LYSN3}NH2): 100%

B2: (Atto647N)n-yPIP (protein)
chain: B1 chain
- HPLC Assay Conv; 1 mM peptide, 14 mM enzyme, 30 C/1 hr (FPFPFP{LYSN3}NH2): 100%

B3: yPIP-Q24-Cy3B (protein)
chain: B1 chain
- HPLC Assay Conv; 1 mM Peptide, 2.1 uM Enzyme, 37 C/0.5 hr (FPFPFP{LYSN3}NH2): 100%

B4: (Cy3B)n-yPIP (protein)
chain: B1 chain
- HPLC Assay Conv; 1 mM peptide, 14 mM enzyme, Tris pH 8.0, 30 C/15 min (FPFPFP{LYSN3}NH2): 100%

B5: yPIP-Q24Dark (protein)
chain: B1 chain
- HPLC Assay Conv; 1 mM Peptide, ~5 uM Enzyme, 37 C/0.5 hr (YPYPYP{LYSN3}NH2): <15%

B6: L. pneumophila M1 aminopeptidase (protein)
chain: MMVKQGVFMKTDQSKVKKLSDYKSLDYFVIHVDLQIDLSKKPVESKARLTVVPNLNVDSHSNDLVLDGENMTLVSLQMNDNLLKENEYELTKDSLIIKNIPQNTPFTIEMTSLLGENTDLFGLYETEGVALVKAESEGLRRVFYLPDRPDNLATYKTTIIANQEDYPVLLSNGVLIEKKELPLGLHSVTWLDDVPKPSYLFALVAGNLQRSVTYYQTKSGRELPIEFYVPPSATSKCDFAKEVLKEAMAWDERTFNLECALRQHMVAGVDKYASGASEPTGLNLFNTENLFASPETKTDLGILRVLEVVAHEFFHYWSGDRVTIRDWFNLPLKEGLTTFRAAMFREELFGTDLIRLLDGKNLDERAPRQSAYTAVRSLYTAAAYEKSADIFRMMMLFIGKEPFIEAVAKFFKDNDGGAVTLEDFIESISNSSGKDLRSFLSWFTESGIPELIVTDELNPDTKQYFLKIKTVNGRNRPIPILMGLLDSSGAEIVADKLLIVDQEEIEFQFENIQTRPIPSLLRSFSAPVHMKYEYSYQDLLLLMQFDTNLYNRCEAAKQLISALINDFCIGKKIELSPQFFAVYKALLSDNSLNEWMLAELITLPSLEELIENQDKPDFEKLNEGRQLIQNALANELKTDFYNLLFRIQISGDDDKQKLKGFDLKQAGLRRLKSVCFSYLLNVDFEKTKEKLILQFEDALGKNMTETALALSMLCEINCEEADVALEDYYHYWKNDPGAVNNWFSIQALAHSPDVIERVKKLMRHGDFDLSNPNKVYALLGSFIKNPFGFHSVTGEGYQLVADAIFDLDKINPTLAANLTEKFTYWDKYDVNRQAMMISTLKIIYSNATSSDVRTMAKKGLDKVKEDLPLPIHLTFHGGSTMQDRTAQLIADGNKENAYQLH
- HPLC Assay Conv; 1 mM Peptide, 1.3 uM enzyme, RT/0.5 hr (IIPFQQ): 42%
- HPLC Assay Conv; 1 mM Peptide, 1.3 uM enzyme, RT/0.5 hr (RRPFQQ): 0%
- HPLC Assay Conv; 1 mM Peptide, 1.3 uM enzyme, RT/0.5 hr (DDPFQQ): 21%
- HPLC Assay Conv; 1 mM Peptide, 1.3 uM enzyme, RT/0.5 hr (CCPFQQ): 0%
- HPLC Assay Conv; 1 mM Peptide, 1.3 uM enzyme, RT/0.5 hr (TTPFQQ): 0%
- HPLC Assay Conv; 1 mM Peptide, 1.3 uM enzyme, RT/0.5 hr (LLPFQQ): 0%
- HPLC Assay Conv; 1 mM Peptide, 1.3 uM enzyme, RT/0.5 hr (QQPFQQ): 0%
- HPLC Assay Conv; 1 mM Peptide, 1.3 uM enzyme, RT/0.5 hr (KKPFQQ): 0%
- HPLC Assay Conv; 1 mM Peptide, 1.3 uM enzyme, RT/0.5 hr (FFPFQQ): 0%
- HPLC Assay Conv; 1 mM Peptide, 1.3 uM enzyme, RT/0.5 hr (YYPFQQ): 0%
- HPLC Assay Conv; 1 mM Peptide, 1.3 uM enzyme, RT/0.5 hr (WWPFQQ): 0%
- HPLC Assay Conv; 1 mM peptide, 1 mM enzyme, 30 C/1 hr (DDMDDM{LYSN3}NH2): 100%
- HPLC Assay Conv; 1 mM Peptide, 1.3 uM enzyme, RT/0.5 hr (VVPFQQ): 0%
- HPLC Assay Conv; 1 mM Peptide, 1.3 uM enzyme, RT/0.5 hr (AAPFQQ): 0%
- HPLC Assay Conv; 1 mM Peptide, 1.3 uM enzyme, RT/0.5 hr (SSPFQQ): 0%
- HPLC Assay Conv; 1 mM Peptide, 1.3 uM enzyme, RT/0.5 hr (EEPFQQ): 31%
- HPLC Assay Conv; 1 mM Peptide, 1.3 uM enzyme, RT/0.5 hr (NNPFQQ): 0%
